Measured values published in ChEMBL document CHEMBL1811860, “Synthesis and inhibitory activity of sialic acid derivatives targeted at viral sialate-O-acetylesterases” (Eur J Med Chem, 2011).

Legend:
[1] = Inhibition of SDAV GFP-tagged 9-SOAE expressed in Sf9 cells assessed as inhibition of hydrolysis of pNPA at 0.5 mM; conditions: Rat sialodacryoadenitis coronavirus
Outline: (§1)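 EGFP-fused haemagglutinin-esterase was made in serum-free Sf9 cultures via recombinant baculovirus and recovered from supernatant by ultracentrifugation (1.5 h, 4 °C). It was preincubated with sialoside for 30 min at room temperature. pNPA (10 µl of 100 mM acetonitrile stock) was added in PBS pH 7.4 to 1 ml, and A400 was followed. Read-out was % inhibition of pNPA hydrolysis.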

[2] = Inhibition of MHV S 4-SOAE expressed in Sf9 cells assessed as inhibition of hydrolysis of pNPA at 5 mM; conditions: Murine coronavirus
[3] = Inhibition of SDAV GFP-tagged 9-SOAE expressed in Sf9 cells assessed as inhibition of hydrolysis of pNPA at 5 mM; conditions: Rat sialodacryoadenitis coronavirus; outline: as §1
[4] = Inhibition of MHV S 4-SOAE expressed in Sf9 cells assessed as inhibition of hydrolysis of pNPA at 0.1 mM; conditions: Murine coronavirus
[5] = Inhibition of MHV S 4-SOAE expressed in Sf9 cells assessed as inhibition of hydrolysis of pNPA at 1 mM; conditions: Murine coronavirus
[6] = Inhibition of MHV S 4-SOAE expressed in Sf9 cells assessed as inhibition of hydrolysis of pNPA at 0.5 mM; conditions: Murine coronavirus
[7] = Inhibition of SDAV GFP-tagged 9-SOAE expressed in Sf9 cells assessed as inhibition of hydrolysis of pNPA at 0.1 mM; conditions: Rat sialodacryoadenitis coronavirus; outline: as §1
[8] = Inhibition of SDAV GFP-tagged 9-SOAE expressed in Sf9 cells assessed as inhibition of hydrolysis of pNPA at 1 mM; conditions: Rat sialodacryoadenitis coronavirus; outline: as §1
[9] = Inhibition of Influenza C virus C/JJ/50 9-SOAE expressed in Sf9 cells assessed as inhibition of hydrolysis of pNPA at 1 mM
[10] = Inhibition of recombinant influenza C virus C/Cal/78 GFP-tagged 9-SOAE expressed in Sf9 cells assessed as inhibition of hydrolysis of pNPA at 2 mM; outline: as §1
[11] = Inhibition of recombinant influenza C virus C/Cal/78 GFP-tagged 9-SOAE expressed in Sf9 cells assessed as inhibition of hydrolysis of pNPA at 1 mM; outline: as §1
[12] = Inhibition of recombinant influenza C virus C/Cal/78 GFP-tagged 9-SOAE expressed in Sf9 cells assessed as inhibition of hydrolysis of pNPA at 0.5 mM; outline: as §1
[13] = Inhibition of Bovine coronavirus 9-SOAE expressed in Sf9 cells assessed as inhibition of hydrolysis of pNPA at 2 mM
[14] = Inhibition of Bovine coronavirus 9-SOAE expressed in Sf9 cells assessed as inhibition of hydrolysis of pNPA at 0.5 mM
[15] = Inhibition of Bovine coronavirus […] assessed as inhibition of hydrolysis of pNPA at 1 mM; conditions: Sf9
[16] = Inhibition of Influenza C virus C/JJ/50 9-SOAE expressed in Sf9 cells assessed as inhibition of hydrolysis of pNPA at 0.5 mM

Compound: C=CCO[C@]1(C(=O)O)C[C@H](OP(C)(=O)O)[C@@H](NC(C)=O)[C@H]([C@H](O)[C@H](O)CO)O1
- inhibition [1]: 2.89%
- inhibition [2]: 7.81%
- inhibition [3]: 11%
- inhibition [4]: 5%
- inhibition [5]: 11.9%
- inhibition [6]: 2.36%
- inhibition [7]: 8.3%
- inhibition [8]: 0.65%

Compound: C=CCO[C@]1(C(=O)O)C[C@H](O)[C@@H](NC(C)=O)[C@H]([C@H](O)[C@H](O)COP(C)(=O)O)O1
- inhibition [9]: 3.85%
- inhibition [10]: 7.91%
- inhibition [11]: 6.08%
- inhibition [12]: 1.06%
- inhibition [13]: < 0%
- inhibition [14]: 9.78%
- inhibition [15]: 2.7%
- inhibition [16]: < 0%
